Anti-infective test results gathered from many reports (values: NIAID ChemDB through PubChem).

Shared fields: growth or infection tests; organism: Mycobacterium tuberculosis

Blank or dashed fields: not listed here. A number after MIC or MFC names an inhibition level or a share of isolates. MIC bound: limit read from a one-dose screen. Conditions beyond the fields shown may differ between rows. ECn: concentration that inhibits the pathogen or its effect by n%. Inhibition is in % at the dose shown (toxicity tests: loss of growth or viability). Zone: diameter of growth inhibition.

structure | strain or isolate | endpoint | mutations | method | tested at | value
Nc1cc(-c2ccccc2)c2ccc(=O)[nH]c2n1 | H37Rv | EC50 |  |  |  | >12.5 µg/mL
O=C(Nc1ccccc1)c1ccc([N+](=O)[O-])o1 | H37Rv | MIC90 |  |  |  | 0.1 µg/mL
COc1ccc2c(c1)[n+]([O-])c(/C(C)=N/NC(=O)c1ccccc1O)c(C)[n+]2[O-] | RMP-R | MIC |  |  |  | 6.3 µg/mL
CCCCCCCCCCCCCCC(Oc1cccc(Cl)c1)C(=O)O | H37Rv | MIC |  |  |  | 100 µg/mL
CC(=O)NC[C@H]1CN(c2ccc(N3CCOCC3)c(F)c2)C(=O)O1 | 10 isolates (isoniazid rifampin-resistant) | MIC50 |  |  |  | 0.25 µg/mL
CNC(=S)N(c1ccc(F)c(Cl)c1)C(C)c1cccs1 |  | zone |  | visual reading | 1000 µg/mL | 13.84 mm
O=c1oc2ccccc2c(=O)n1-c1ccc(C2CCCCC2)cc1 | H37Rv | MIC |  |  |  | >1000 µM
CCCCCCCCCCC(C(=O)O)S(=O)(=O)c1ccc(OC)cc1 | H37Rv | MIC |  |  |  | 10 µg/mL
COc1ccc2c(-c3ccccc3)cc(N)nc2n1 | H37Rv | EC50 |  |  |  | <12.5 µg/mL
NCc1ccccc1-c1c2nc(c(-c3ccccc3CN)c3ccc([nH]3)c(-c3ccccc3CN)c3nc(c(-c4ccccc4CN)c4ccc1[nH]4)C=C3)C=C2 | H37Rv | MIC bound |  | resazurin |  | >6.25 µg/mL
CCSN(SCC)C(=S)c1ncnc(NC2CC2)c1[N+](=O)[O-] |  | MBC |  |  |  | 29.1 µg/mL
Cc1cnc(C(=O)NCN2CCCC2)cn1 | PZA-resistant | MIC |  |  |  | 100 µg/mL
CCc1cc(C(N)=S)ccn1 | H37Rv | MBC |  |  |  | 2.5 µg/mL
CCCCCCCCCCC(C(=O)O)S(=O)(=O)c1ccc(C)cc1 | H37Rv | MIC |  |  |  | 10 µg/mL
COC(=O)NC(C(C)C)C(C)(CC(O)O[C@H]1C/C=C(\C)[C@@H]2CC[C@@H]3[C@@H](OC4CC(OC5CC(O)C(OC6CC(O)C(OC)C(C)O6)C(C)O5)C(O)C(C)O4)[C@@H](C)C[C@H](C)[C@H]3[C@]2(C)C(O)=C2C(=O)O[C@]3(C[C@@H](C)C(CO)C[C@H]3/C=C/1C)C2=O)[N+](=O)[O-] | H37Rv | MIC |  | BACTEC |  | ≥12.5 µg/mL
NC[C@H]1O[C@H](O[C@H]2[C@H](O)[C@@H](O[C@H]3O[C@H](CO)[C@@H](O)[C@H](N)[C@H]3O)[C@H](N)C[C@@H]2N)[C@H](O)[C@@H](O)[C@@H]1O | H37Rv | MIC |  |  |  | 1.5 µg/mL
COc1ccc2c(O)c3[n+](cc2c1OC)CCc1cc2c(cc1-3)OCO2 | H37Rv | MIC bound |  | BACTEC |  | >12.5 µg/mL
CNC(=S)N(Cc1ccco1)c1ccc(Cl)c(Cl)c1 |  | MIC |  | visual reading |  | 200 µg/mL
CC(C)C1(Cl)CCC2C3(C)CCCC(C)(C(=O)O)C3CC(Cl)C2(Cl)C1Cl | H37Rv | MIC bound |  | BACTEC |  | >6.25 µg/mL
CC[N+](C)(CC)CCNC(=O)c1cc([N+](=O)[O-])cc([N+](=O)[O-])c1 | N73 | MIC |  |  |  | 50 µg/mL
CC(C)N=c1cc2n(-c3ccc(Cl)cc3)c3ccccc3nc-2cc1Nc1ccc(Cl)cc1 | H37Rv | MIC90 |  | fluorescence |  | 0.25 µg/mL
Cc1c(NC(=S)NC(=O)c2ccc([N+](=O)[O-])cc2)c(=O)n(-c2ccccc2)n1C | H37Rv | inhibition |  | BACTEC | 12.5 µg/mL | 4%
O=C(NCN1CCCC1)c1cnccn1 | ATCC35801 | MIC |  |  |  | 8 µg/mL
Oc1ccc(CCN=C=S)cc1 | CDC1561 | MIC |  | visual reading |  | 16 µg/mL
S=C(Nc1ccccc1)Nc1ccc(-c2nnc(Nc3ccccc3)s2)cc1 | H37Rv | MIC |  |  |  | >6.25 µg/mL
O=c1oc2ccc(Br)cc2c(=O)n1-c1ccc(Cl)cc1 | H37Rv | MIC |  |  |  | 12.3 µM
CCCCCCCCCCCCNC[C@H]1OC2OC(C)(C)OC2C2OC(C)(C)OC21 | H37Rv | MIC |  |  |  | 6.25 µg/mL
O=C(CCCC(=O)N/N=C/c1cc(O)ccc1O)N/N=C/c1cc(O)ccc1O | H37Rv | inhibition |  | BACTEC | 12.5 µg/mL | 13%
CCN(CC)CCNC(=O)c1ccc(Cl)cc1 | N353 | MIC |  |  |  | 50 µg/mL
CC1(C)OC2OC(C(CCO)NC3CC3)[C@@H](OCc3ccccc3)C2O1 | H37Rv | MIC |  |  |  | 50 µg/mL
CN(C)CCCN1c2ccccc2Sc2ccc(Cl)cc21 | 23427 | MIC |  |  |  | 10 µg/mL
S=C1SCN(Cc2ccccc2)CN1Cc1ccco1 | H37Rv | MIC bound |  | BACTEC |  | >12.5 µg/mL
COC(=O)N1CCN(c2cc(-c3ccccc3)c3ccc(OC)nc3n2)CC1 | H37Rv | inhibition |  |  | 12.5 µg/mL | 0%
O=C(NCN1CCNCC1)c1cnccn1 | ATCC 27294 | MIC |  |  |  | 100 µg/mL
NNC(=O)c1ccncc1 | RM22 | MIC |  |  |  | 16 µg/mL
CCN(CC)CCNC(=O)c1ccc([N+](=O)[O-])cc1Cl | N353 | MIC |  |  |  | 50 µg/mL
CCCCCCCCCCCCNC(CCO)C1OC2OC(C)(C)OC2[C@@H]1OC | H37Rv | MIC |  |  |  | 25 µg/mL
Nc1nc(-c2ccccc2)c(N=Nc2cccc(Cl)c2)s1 | H37Rv | inhibition |  | BACTEC | 6.25 µg/mL | 66%
Nc1ccc(C(=O)O)c(O)c1 | H37Rv | MIC |  |  |  | 0.25 µg/mL
NNC(=O)c1ccncc1 | XDR-926 | MIC |  | resazurin |  | 8 µg/mL
NNC(=O)c1ccncc1 |  | MIC | INH resistant katG S315T | fluorescence |  | >10 µM
CSc1ccc(NC(=O)Nc2c(C)n(C)n(-c3ccccc3)c2=O)cc1 | H37Rv | MIC |  | BACTEC |  | ≥12.8 µg/mL
CCCN(CCC)CNC(=O)c1cnccn1 | ATCC 27294 | MIC |  |  |  | 100 µg/mL
CCC(C)N(C(=S)Nc1ccccc1)c1ccc(F)c(Cl)c1 |  | zone |  | visual reading | 1000 µg/mL | 11.04 mm
CO[C@H]1/C=C/O[C@@]2(C)Oc3c(C)c(O)c4c(O)c(c(/C=N/N5CCN(C)CC5)c(O)c4c3C2=O)NC(=O)/C(C)=C\C=C\[C@H](C)[C@H](O)[C@@H](C)[C@@H](O)[C@@H](C)[C@H](OC(C)=O)[C@@H]1C | RM22 | MIC |  |  |  | >64 µg/mL
Nc1ccc2c(-c3ccccc3)cc(=O)[nH]c2n1 | H37Rv | inhibition |  |  | 12.5 µg/mL | 0%
CS(=O)(=O)c1ccc(CC(=O)c2ccc([N+](=O)[O-])o2)cc1 | H37Rv | MIC90 |  |  |  | 1.17 µg/mL
S=C(Nc1ccccc1)Nc1ccc(-c2nnc(Nc3ccc(Cl)cc3)s2)cc1 | H37Rv | EC50 |  |  |  | >6.25 µg/mL
COc1ccc(CNC(=O)c2ccc([N+](=O)[O-])o2)c(OC)c1 | H37Rv | MIC90 |  |  |  | 0.8 µg/mL
NC(=O)c1cnc(Cl)cn1 | ATCC35801 | MIC |  |  |  | 16 µg/mL
O=C1N=NC(=O)C2NC=NC12 | H37Rv | inhibition |  | BACTEC | 12.5 µg/mL | 0%
CCOC(=O)N1CCN(c2cc(-c3ccccc3)c3ccc(N)nc3n2)CC1 | H37Rv | inhibition |  |  | 12.5 µg/mL | 70%
Cc1ccc(-n2c(=O)oc3ccc(Br)cc3c2=O)cc1 | H37Rv | MIC |  |  |  | 37 µM
CC(c1cccs1)N(C(=S)Nc1ccccc1)c1ccc(Cl)c(Cl)c1 |  | zone |  | visual reading | 1000 µg/mL | 20.38 mm
CCCCCCCCCCCCCCCCNC(CCO)C1OC2OC(C)(C)OC2[C@H]1OC | H37Rv | MIC |  |  |  | 12.5 µg/mL
O=C(O)c1oc2ccccc2c1C=C(c1ccccc1)c1ccccc1 | H37Rv | MIC bound |  | BACTEC |  | >12.5 µg/mL
Fc1ccc(Nc2nnc(-c3ccc(NC(=S)Nc4ccccc4)cc3)s2)cc1 | H37Rv | inhibition |  |  | 6.25 µg/mL | 0%
Cc1cc(N=Nc2c(O)c3ccccc3[nH]c2=O)ccc1N=Nc1ccc(C(=O)N(C)C)cc1 | H37Rv | MIC |  | BACTEC |  | ≥12.5 µg/mL
O=C(O)C(=O)O.OC(CNCCc1ccccc1)CN1c2ccccc2Sc2ccccc21 | XDR-926 | MIC |  | resazurin |  | 32 µg/mL
C[C@H]1COc2c(N3CCN(C)CC3)c(F)cc3c(=O)c(C(=O)O)cn1c23 | Clinical isolate 71 A | MIC | INH RIF resistant | resazurin |  | 0.25 µg/mL
Oc1cc(O)c2c(c1)OC(c1ccc(O)c(O)c1)C(O)C2c1c(O)cc(O)c2c1OC(c1ccc(O)c(O)c1)C(O)C2 | H37Rv | MIC bound |  | BACTEC |  | >12.5 µg/mL
CC(c1cccs1)N(C(=S)Nc1ccccc1)c1ccc(F)c(Cl)c1 |  | MIC |  | visual reading |  | 12.5 µg/mL
O=c1oc2ccccc2c(=O)n1-c1ccc(Cl)cc1 | H37Rv | MIC |  |  |  | 37 µM
CC(=O)Nc1ccc2c(-c3ccccc3)cc(Cl)nc2n1 | H37Rv | inhibition |  |  | 12.5 µg/mL | 0%
Oc1cc(Cl)ccc1Oc1ccc(Cl)cc1Cl | H37Rv | MIC |  |  |  | 34.5 µM
COc1cccc(NC(=O)c2cc([N+](=O)[O-])cn2C)c1 | H37Rv | MIC90 |  |  |  | >200 µg/mL
CCCCCCCCCCCCCCC(Oc1ccc(Cl)cc1)C(=O)O | H37Rv | MIC |  |  |  | 10 µg/mL
Fc1ccc(N(Cc2ccco2)C(=S)Nc2ccccc2)cc1Cl |  | MIC |  | visual reading |  | 50 µg/mL
CC(=O)OC[C@@H](OC(C)=O)[C@@H](OC(C)=O)[C@H](OC(C)=O)[C@@H](OC(C)=O)[C@@H](OC(C)=O)[C@H](OC(C)=O)C(N)=O | H37Rv | MIC bound |  | resazurin |  | >6.25 µg/mL
NC(=O)c1cnccn1 | ATCC 35822 | MIC |  |  |  | 33 µg/mL
COc1ccc(CNC(=O)c2cc([N+](=O)[O-])cn2C)cc1 | H37Rv | MIC90 |  |  |  | >200 µg/mL
CCOC(=O)N1CCN(c2ccc3c(-c4ccccc4)cc(N4CCN(C(=O)OCC)CC4)nc3n2)CC1 | H37Rv | EC50 |  |  |  | <12.5 µg/mL
CC[C@@H](CO)NCCN[C@@H](CC)CO | H37Rv | MIC |  |  |  | 0.47 µg/mL
O=C(O)c1ccc([N+](=O)[O-])cc1Cl | H37Rv | inhibition |  | BACTEC | 12.5 µg/mL | 0%
CC(C)N(C(=S)Nc1ccccc1)c1ccc(F)c(Cl)c1 |  | MIC |  | visual reading |  | >400 µg/mL
CN(CNC(=O)c1cnccn1)Cc1ccccc1 | MS6210 | MIC |  |  |  | 33 µg/mL
COc1ccc(-n2c(=O)oc3ccc(Br)cc3c2=O)cc1 | H37Rv | MIC |  |  |  | 74 µM
CC1(C)OC2O[C@H](C(CCO)NC3CC3)C3OC(C)(C)OC3C2O1 | H37Rv | MIC |  |  |  | 50 µg/mL
O=C(Nc1ccc(Cl)cc1)Nc1nnc2nc(C(C(=O)/C=C/c3ccccc3)c3nc4nnc(NC(=O)Nc5ccc(Cl)cc5)n4[nH]c3=O)c(=O)[nH]n12 | H37Rv | MIC bound |  | BACTEC |  | >12.5 µg/mL
CO[C@H]1/C=C/O[C@@]2(C)Oc3c(C)c(O)c4c(O)c(c(/C=N/N5CCN(C6CCCC6)CC5)c(O)c4c3C2=O)NC(=O)/C(C)=C\C=C\[C@H](C)[C@H](O)[C@@H](C)[C@@H](O)[C@@H](C)[C@H](OC(C)=O)[C@@H]1C | H37Rv | MIC |  |  |  | ≤0.125 µg/mL
COc1ccc(Nc2nnc(-c3ccc(NC(=S)Nc4ccccc4)cc3)s2)cc1 | H37Rv | MIC |  |  |  | >6.25 µg/mL
COc1cc(=O)cc2n(c1=O)CCC2 | H37Rv | MIC bound |  | BACTEC |  | >12.5 µg/mL
CCn1cc(C(=O)O)c(=O)c2cc(F)c(N3CCN(C)CC3)cc21 | 9 isolates (RMP INH-S) | MIC50 |  |  |  | 8 µg/mL
Cc1cc(=O)c2c3c(ccc2[nH]1)Oc1ccccc1O3 | H37Rv | MIC bound |  | BACTEC |  | >12.5 µg/mL
CCCCCCCCCCC[C@@H](C[C@@H]1OC(=O)[C@H]1CCCCCC)OC(=O)[C@H](CC(C)C)NC=O | H37Rv | MIC |  | broth dilution |  | 50 µg/mL
CC1=NN(c2ccccc2)C(=O)C1N=Nc1ccc(S(=O)(=O)Nc2nnc(C)s2)cc1 | ETA-R | MIC |  |  |  | 3.1 µg/mL
COc1ccc(CNC(=O)c2nc([N+](=O)[O-])cn2C)cc1OC | H37Rv | MIC90 |  |  |  | >200 µg/mL

10 of the rows above, restated:

structure,strain or isolate,endpoint,mutations,method,tested at,value
Nc1ccc2c(-c3ccccc3)cc(=O)[nH]c2n1,H37Rv,inhibition,,,12.5 µg/mL,0%
Oc1cc(Cl)ccc1Oc1ccc(Cl)cc1Cl,H37Rv,MIC,,,,34.5 µM
CC(C)C1(Cl)CCC2C3(C)CCCC(C)(C(=O)O)C3CC(Cl)C2(Cl)C1Cl,H37Rv,MIC bound,,BACTEC,,>6.25 µg/mL
CC[C@@H](CO)NCCN[C@@H](CC)CO,H37Rv,MIC,,,,0.47 µg/mL
O=C(NCN1CCCC1)c1cnccn1,ATCC35801,MIC,,,,8 µg/mL
CCCCCCCCCCCCNC[C@H]1OC2OC(C)(C)OC2C2OC(C)(C)OC21,H37Rv,MIC,,,,6.25 µg/mL
Nc1ccc(C(=O)O)c(O)c1,H37Rv,MIC,,,,0.25 µg/mL
COc1ccc2c(-c3ccccc3)cc(N)nc2n1,H37Rv,EC50,,,,<12.5 µg/mL
Fc1ccc(N(Cc2ccco2)C(=S)Nc2ccccc2)cc1Cl,,MIC,,visual reading,,50 µg/mL
CSc1ccc(NC(=O)Nc2c(C)n(C)n(-c3ccccc3)c2=O)cc1,H37Rv,MIC,,BACTEC,,≥12.8 µg/mL